Paper PMC6089501 (Journal of Medicinal Chemistry, 2018)
Read-outs that look alike come from different tables or passages of the source.

System: HepG2
Test: cells
Details: Homo sapiens

For `NC(=O)c1sc(N2CCOCC2)cc1OCCc1ccc(OC(F)(F)F)cc1` [Compound 37, 5-Morpholino-3-[2-[4-(trifluoromethoxy)phenyl]ethoxy]thiophene-2-carboxamide], the IC50 (HepG2, read-out: HepG2-Gal IC50) was > 100 µM and the IC50 (HepG2, read-out: HepG2-Glu IC50) was > 100 µM.
